Results of unrelated studies side by side (data: NIAID ChemDB).

Common to all: tests in culture; organism: Herpes simplex virus 1; measure: MIC

Blank or dashed fields: not listed here. Conditions beyond the fields shown may differ between rows.

smiles	strain or isolate	result
O=c1c2ccccc2[se]n1CC(O)C(O)C(O)C(O)CO	-	27.6 µM
O=c1c2ccccc2[se]n1-c1cc([N+](=O)[O-])ccn1	-	5 µg/mL
CC(C)[C@H](NC(=O)CN)C(=O)OCCOCn1cnc2c(=O)[nH]c(N)nc21	KOS	2.9 µM
Nc1ncnc2c1ncn2CCOCP(=O)(O)O	-	7 µg/mL
CCCN1[Se]c2ccccc2NC1=O	-	400 µg/mL
Nc1nc2c(ncn2COC(CO)CO)c(=O)[nH]1	KOS	0.38 µM
C[n+]1cccc2c(=O)n(-c3ccccn3)[se]c21	-	400 µg/mL
CCCNC(=O)Nc1ccccc1[Se][Se]c1ccccc1NC(=O)NCCC	-	>1000 µg/mL
O=c1c2cccnc2[se]n1C1CCCCC1	-	0.8 µg/mL
CC(C)[C@H](NC(=O)[C@H](C)N)C(=O)OCCOCn1cnc2c(=O)[nH]c(N)nc21	KOS	1.3 µM
O=C(CCC[Se][Se]CCCC(=O)Nc1ccc(S(=O)(=O)N2CCCCC2)cc1)Nc1ccc(S(=O)(=O)N2CCCCC2)cc1	-	>1000 µg/mL
Nc1nc(N)c2ncn(CCOCP(=O)(O)O)c2n1	TK-	1 µg/mL
CCCNC(=O)Oc1ccccc1[Se][Se]c1ccccc1OC(=O)NCCC	-	>1000 µg/mL
O=c1[nH]c(=O)n([C@H]2C[C@H](O)[C@@H](CO)O2)cc1/C=C/Br	KOS	0.26 µM
O=c1c2cccnc2[se]n1N(c1ccccc1)c1cc(Cl)ccn1	-	1 µg/mL
O=S(=O)(Nc1ccccc1[Se][Se]c1ccccc1NS(=O)(=O)c1ccccc1)c1ccccc1	-	100 µg/mL
O=c1[nH][se]c2ccccc12	-	1 µg/mL
O=C(Nc1ccccc1[Se][Se]c1ccccc1NC(=O)c1ccccc1)c1ccccc1	-	>1000 µg/mL
O=c1c2cccnc2[se]n1N(c1ccccc1)c1ccccc1	-	1 µg/mL
C(=Nc1ccccc1[Se][Se]c1ccccc1N=Cc1ccccc1)c1ccccc1	-	>1000 µg/mL
O=c1c2cccnc2[se]n1-c1ccccc1	-	0.6 µg/mL
Cc1ccc(S(=O)(=O)Nc2ccccc2[Se][Se]c2ccccc2NS(=O)(=O)c2ccc(C)cc2)cc1	-	600 µg/mL
CC(C)[C@H](NC(=O)[C@@H](N)Cc1ccccc1)C(=O)OCCOCn1cnc2c(=O)[nH]c(N)nc21	KOS	2.9 µM
CC(C)(C)n1[se]c2ncccc2c1=O	-	1 µg/mL

Again, the opening 3 rows:

smiles | strain or isolate | result
O=c1c2ccccc2[se]n1CC(O)C(O)C(O)C(O)CO | - | 27.6 µM
O=c1c2ccccc2[se]n1-c1cc([N+](=O)[O-])ccn1 | - | 5 µg/mL
CC(C)[C@H](NC(=O)CN)C(=O)OCCOCn1cnc2c(=O)[nH]c(N)nc21 | KOS | 2.9 µM